What was measured:
[1] = system: Staphylococcus haemolyticus ATCC 114126; assay: MIC test; format: cell-based; conditions: ATCC114126, read-out: MIC of 4-methyl-2-pentyl-pyridine, S. haemolyticus, average of three replicates, overnight 37° C., lowest concentration with no growth
[2] = system: Escherichia coli DSMZ 1103; assay: MIC test; format: cell-based; conditions: DSMZ1103, read-out: MIC of 4-methyl-2-pentyl-pyridine, E. coli, average of three replicates, overnight 37° C., lowest concentration with no growth

`CCCCCc1cc(C)ccn1` showed an MIC [1] of 745 ± 219 µg/mL and an MIC [2] of 444 ± 78.7 µg/mL.
